# Measurements published in ChEMBL document CHEMBL3785078 (Eur J Clin Pharmacol, 1981).
# What was measured:
# Settings in all cases: in vivo
# Homo sapiens [1] = assay: First order elimination rate constant in iv dosed patient (7 patients) with renal insufficiency
# Homo sapiens [2] = assay: Half life in iv dosed patient (7 patients) with renal insufficiency
# Homo sapiens [3] = assay: First order elimination rate constant in iv dosed patient with normal renal function
# Homo sapiens [4] = assay: Half life in iv dosed patient with normal renal function
smiles,measurement,setting,value
NP(=O)(O)N(CCCl)CCCl,Kel,Homo sapiens [1],1.67e-05 s⁻¹
same,t1/2,Homo sapiens [2],13.4 h
same,Kel,Homo sapiens [3],2.42e-05 s⁻¹
same,t1/2,Homo sapiens [4],8.33 h
